For at least one entry, the source does not settle the construct or the ends of the probe.
Test system: RpoE1-His6 + core RNA polymerase
Test: EMSA
Conditions: with E. coli core RNAP; 10 mM Tris, 50 mM KCl, 1 mM DTT, pH 7.5, room temperature 20 min; 4% PAGE in 0.5x TBE; recombinant protein; protein details: 6xHis (N-terminal, pET30a); label: FAM (primer labeled); probe letters rebuilt from the primers and the genome

Does “GCGAGCGATCGCAGATGTTTAGCGCGCCTTCGCGCATCTGCGTGCCGAACACCGCATCCGTACGCCCACGCATCGTCCTGTGATGCACCGTCAAGATACGCCGGCGCATCGTCTGGCCTTCGTCGCTATGCAGGTGCGGGATCCACTTCGCAGTTTGCAAGACAGAGTGAGAATTTTTGAATTTCTAGCTGCTGCGAAGTGAGAAATTCTATTGGATCCGCTGCATACAATCGTTTGCGCCCACCACAACGGCGCCTTTTGTTGTTTTTGCTCCTCCCCTTCAGAGAGCCCGGCATGATCCTTTCGACCTACTTCGCAGCGATCTCTGCGTTGTCTTACGCAGACCGTCTTCCG (double strand) [PhrpX]” bind?
Result: binds

From paper PMC6085468
